The other results are listed elsewhere or left out. Calls come from the whole dose curve; tested in A549 cells. Only a part of the results of these assays is listed, not drawn at random.
What follows are compounds tested against Ankyrin repeat protein B19, Vaccinia virus (strain Western Reserve) (UniProt Q01222) (assay: qHTS for Stage-Specific Inhibitors of Vaccinia Orthopoxvirus: mCherry Reporter Primary qHTS).
In the case of CCOCCCNC(=O)C(c1ccc(OC)cc1)N(Cc1ccc2c(c1)OCO2)C(=O)c1ccccc1O (stereo unspecified), the outcome is reported as “inactive”.

From the GenesisPotency data set
